According to PMC11218954 (PLOS ONE, 2024):

Tests used:
[1] = target: T1, recombinant F1V fusion protein (F1 and V antigen), dimer-enriched, biotinylated (Yersinia pestis, strain , UniProt P26948, biotin (NHS-LC-LC biotinylation kit)); assay: flow cytometry on cells
[2] = target: T1, recombinant F1V fusion protein (F1 and …); assay: flow cytometry on cells; remark: listed apart in the source

Binder	Kd [1] [nM]	binding result [2]
αF1sc 2 (anti-F1 single chain antibody 2, parental), yeast-displayed (scFv, V domains shown) VH: QVQLVESGGGLVKPGGSLRLSCAASGFTFSDYYMSWIRQAPGKGLEWVSYISSSGSIIYYADSVKGRFTISRDNAKNSLYLQMNSLRAEDTAVYYCAKEIRRHDAFDIWGQGTMVTVSS VL: not shown	154	–
αF1sc 2 EP1-42, yeast-displayed (scFv, V domains shown) VH: QVQLVESGGGLVKPGGSLRLSCAASGFTFSDYYMSWIRQAPGKGLEWVSYISSSGSIIYYADSVKGRFTISRDNAKNSLYLQMNSLRAEDTAVYYCAKEIRKHDAFDIWGQGTMVTVSS VL: not shown	–	binds
αF1sc 2 EP2-3, yeast-displayed (scFv, V domains shown) VH: QVQLVESGGGLVKPGGSLRLSCAASGFTFSDYYMSWIRQAPGKGLEWVSYISGSGSIIYYADSVKGRFTISRDNAKNSLYLQMNSLRAEDTAVYYCAKEIRKHDAFDIWGQGTMVTVSS VL: not shown	–	binds
αF1sc 8 EP1-19, yeast-displayed (scFv, V domains shown) VH: QVQLQQWGAGLLKPSETLSLTCAVYGGSFSGYYWSWIRQPPGKGLEWIGEINHSGNTNYNPSLKSRVTISVDTSKNQFSLQLNSVTPEDTAVYYCARTRGYFDLWGRGTLVTVSS VL: QPVLTQSPSVSVSPGQTASITCSGDKLGGRYASWYQQKPGQSPVLVIYQDTKRPSGIPERFSGSNSGNTATLTISGTQAMDEADYYCQSWDSSAAVFGTGTKLTVL	–	binds
αF1sc AM2 (αF1sc 2 EP3-18), affinity matured, yeast-displayed (scFv, V domains shown) VH: QVQLVESGGGLVKPGGSLRLSCAASGFTFSDYYMSWIRQAPGKGLEWVSYISGSGSIIYYADSVKGRFTISRDNAKNSLYLQMNSLRAEDTAVYYCAKEIRKHDAFDIWGQGTMVTVSS VL: DIRMTQSPSSLSASVGDRVTITCRASRSISGYLNWYQQKPGKAPKLLIYATSSLQSGVPSRFSGSGSGTDFTLTISSLQPEDFATYYCQQSYSTPSSFGQGTKVDIK	51.3	–
αF1sc 8 (anti-F1 single chain antibody 8, parental), yeast-displayed (scFv, V domains shown) VH: QVQLQQWGAGLLKPSETLSLTCAVYGGSFSGYYWSWIRQPPGKGLEWIGEINHSGNTNYNPSLKSRVTISVDTSKNQFSLQLNSVTPEDTAVYYCARTRGYFDLWGRGTLVTVSS VL: QPVLTQSPSVSVSPGQTASITCSGDKLGDRYASWYQQKPGQSPVLVIYQDTKRPSGIPERFSGSNSGNTATLTISGTQAMDEADYYCQSWDSSAAVFGTGTKLTVL	67.7	–
αF1sc AM8 (αF1sc 8 EP2-24), affinity matured, yeast-displayed (scFv, V domains shown) VH: QVQLQQWGAGLLKPSETLSLTCAVYGGSFSGYYWSWIRQPPGKGLEWIGEINRSGNTNYNPSLKSRVTISVDTSKNQFSLQLNSVTPEDTAVYYCARTRGYFDLWGRGTLVTVSS VL: QPVLTQSPSVSVSPGQTASITCSGDKLGGRYASWYQQKPGQSPVLVIYQDTKRPSGIPERFSGSNSGNTATLTISGTQAMDEADYYCQSWDSSAAVFGTGTKLTVL	7.8	–
